Test results taken from patent US20120294879A1, “CONSENSUS SEQUENCE FOR INFLUENZA A VIRUS” (priority 2009, published 2012).

Target: HLA-DR2 (DRB1*1501), chimeric DRA1*0101:I-Eα and DRB1*1501:I-Eβ, as expressed in HLA-DR2 transgenic mice (human; mouse), Q8BHN5
Test: cell-based or functional assay

Binder: LEVCFMYSDFHFINEQG (modifications not checked) [PA 42-58 peptide of influenza virus A/New York/348/2003 (H1N1)]
- lowest concentration of peptide giving positive ELISpot response: 1 µg/mL
- IFN-γ ELISpot at 10 µg/ml peptide, splenocytes of immunized HLA transgenic mice (scale: IFN-γ spot forming cells per million splenocytes): 64
